A mixed list of measured activities; the numbers were collected in NIAID ChemDB.

All rows: growth or infection tests; agent: Mycobacterium tuberculosis

Conditions beyond the fields shown may differ between rows. A number after MIC or MFC names an inhibition level or a share of isolates. Percent inhibition refers to the dose given; in toxicity tests it is the harm to the cells. a–b is a range or a potency band. ECn is the concentration giving n% inhibition of infection, replication or growth. Blank or dashed fields: not listed here. MIC bound: limit read from a one-dose screen.

smiles	endpoint	mutations	setting	cell line	method	strain or isolate	dose	result
O=C1c2cc(F)ccc2-n2c1nc1nccnc1c2=O	MIC	-	-	-	-	H37Rv	-	10 µg/mL
CO[C@H]1/C=C/O[C@@]2(C)Oc3c(C)c(O)c4c(=O)c(c5oc6cc(N7CCN(CC(C)C)CC7)cc(=O)c6nc5c4c3=C2O)NC(=O)/C(C)=C\C=C\[C@H](C)[C@H](O)[C@@H](C)[C@@H](O)[C@@H](C)[C@H](OC(C)=O)[C@@H]1C	MIC	-	-	-	-	H37Rv	-	0.004 µg/mL
CN(CCOc1ccc(OC(F)(F)F)cc1)C1CCN(c2ccc(OC[C@@]3(C)Cn4cc([N+](=O)[O-])nc4O3)cc2)CC1	MIC	-	-	-	-	H37Rv	-	0.024 µg/mL
NNC(=O)C[n+]1ccccc1	MIC	-	-	-	BACTEC	H37Rv	-	≥12.5 µg/mL
CC[C@@H](CO)NCCN[C@@H](CC)CO	MIC	-	-	-	broth dilution / resazurin	MDR18	-	16 µg/mL
COc1cccc(/C=C/C(=O)c2ccc(F)cc2)c1F	MIC	-	14 d	-	resazurin	H37Rv	-	32 µg/mL
CC(C)/C=N/NC(=O)c1nc(C2C3CC4CC(C3)CC2C4)[nH]c1C1C2CC3CC(C2)CC1C3	MIC	-	-	-	-	H37Rv	-	>6.25 µg/mL
O=C(NNc1ccccc1)C(=O)NNc1ccccc1	inhibition	-	-	-	BACTEC	H37Rv	12.5 µg/mL	0%
CC(C)c1ncc(C(=O)NN)[nH]1	MIC	-	-	-	-	H37Rv	-	>6.25 µg/mL
CC(=O)c1c(C)n([O-])c2cc(Cl)c(Cl)cc2[n+]1=O	inhibition	-	-	VERO	BACTEC	H37Rv	6.25 µg/mL	100%
O=C1NC(NNC(=O)c2ccncc2)=N/C1=C\c1cccc(Cl)c1	EC50	-	-	VERO	resazurin	H37Rv	-	<12.5 µg/mL
O=C(N/N=C/c1ccc([N+](=O)[O-])cc1[N+](=O)[O-])c1ccc(F)cc1	MIC	-	-	-	-	H37Rv	-	>6.25 µg/mL
C=CCSS/C=C/CS(=O)CC=C	MIC	-	-	-	-	ETA-R	-	12.5 µg/mL
Cc1ccc(C(=O)/C=C/c2ccccc2)c(F)c1	MIC	-	-	-	MTT	H37Rv	-	32 µg/mL
CC(C)(C)c1ccc(-c2noc(CN3CCN(c4ccc(OC[C@@]5(C)Cn6cc([N+](=O)[O-])nc6O5)cc4)CC3)n2)cc1	MIC	-	-	-	-	H37Rv	-	0.024 µg/mL
O=[N+]([O-])[O][Ga]([O][N+](=O)[O-])[O][N+](=O)[O-]	inhibition	-	inside macrophages	-	-	Erdman	500 µM	95%
COc1ccc(NC(=O)OCC[NH+]2CCCC2)cc1	MIC	-	-	-	-	My 331/88	-	1000 µM
Cc1ccc2nc3n(c(=O)c2c1)-c1ccc(F)cc1C3=O	MIC	-	-	-	-	MDR 10038	-	1 µg/mL
C/C=C/c1ccc2oc(-c3ccc(O)c(OC)c3)c(C)c2c1	MIC	-	-	-	resazurin / absorbance	Clinical isolate 4851	-	7.8 µg/mL
CN[C@@H]1[C@H](O[C@H]2[C@H](O[C@H]3[C@H](O)[C@@H](O)[C@H](N=C(N)N)[C@@H](O)[C@@H]3N=C(N)N)O[C@@H](C)[C@]2(O)C=O)O[C@@H](CO)[C@H](O)[C@H]1O	MIC	-	-	-	-	3564/83 (streptomycin-resistant)	-	25–50 µg/mL
O=C1NC(NNC(=O)c2ccncc2)=N/C1=C\c1c(Cl)cccc1Cl	MIC	-	-	-	resazurin	H37Rv	-	>12.5 µg/mL
C/C=C1\C(=O)O[C@]23C=C[C@@H]4C(C(=O)OC)=CO[C@H](O[C@@H]12)[C@@H]43	MBC	-	-	-	MTT	MDR3 clinical isolate	-	3.8 µg/mL
Cc1ccc2c(c1)[n+](=O)c(C(=O)c1ccccc1)c(C)n2[O-]	EC50	-	-	VERO	BACTEC	H37Rv	-	>6.25 µg/mL
Cc1cccc2nc3n(c(=O)c12)-c1ccc(F)cc1C3=O	MIC	-	-	-	-	H37Rv	-	1 µg/mL
C[C@]1(COc2ccc(N3CCN(C/C=C/c4c(Cl)cccc4Cl)CC3)cc2)Cn2cc([N+](=O)[O-])nc2O1	MIC	-	-	-	-	H37Rv	-	0.024 µg/mL
CC(=O)NC[C@H]1CN(c2ccc(N3CCN(c4ccc([N+](=O)[O-])s4)CC3)c(F)c2)C(=O)O1	MIC	-	-	-	-	PC	-	0.5 µg/mL
CCOC(=O)c1nc(C(C)C)[nH]c1C(C)C	MIC	-	-	-	-	H37Rv	-	>6.25 µg/mL
O=C1NC(NNC(=O)c2ccncc2)=N/C1=C\c1ccccc1Cl	EC50	-	inside macrophages	-	colony count	Erdman	-	<0.85 µg/mL
Cc1cc(-c2ccco2)oc(=O)c1NC(=O)c1cnccn1	inhibition	-	-	-	BACTEC	H37Rv	6.25 µg/mL	34%
O=C(N/N=C/c1ccc([N+](=O)[O-])s1)c1ccc(Cl)cc1	inhibition	-	-	-	-	H37Rv	6.25 µg/mL	96%
COc1ncc(F)c2nc(S(=O)(=O)Nc3ncccc3C(C)=O)nn12	MIC50	INH RIF resistant	-	-	visual reading	M22	-	0.5 µM
CC1COc2c(N3CCN(C)CC3)c(F)cc3c(=O)c(C(=O)O)cn1c23	MIC	-	-	-	-	001-010 (drug-resistant)	-	0.75 µg/mL
CCCCCCCOc1cccc(NC(=O)OCCN2CCCCCC2)c1	MIC	-	-	-	-	My 331/88	-	8 µM
Cc1c(N)nc([C@H](CC(N)=O)NC[C@@H](N)C(N)=O)nc1C(=O)N[C@H](C(=O)NC(C)C(O)CC(=O)NC(C(=O)NC(OC1OC(C)C(N)C(O)C1O)C(O)c1nc(-c2nc(C(=O)NCCCCN)cs2)cs1)[C@H](C)O)C(OC1OC(CO)C(O)C(O)C1OC1OC(CO)C(O)C(OC(N)=O)C1O)c1cnc[nH]1.Cl.Cl.Cl.Cl	inhibition	-	-	-	BACTEC	H37Rv	12.8 µg/mL	100%
CC(C)(C)c1nc(C(=O)NN)c(C(C)(C)C)[nH]1	inhibition	-	-	-	-	H37Rv	6.25 µg/mL	20%
CCCc1ccc2oc(-c3ccc4c(c3)OCO4)c(C)c2c1	MIC	-	-	-	resazurin / absorbance	H37Rv	-	250 µg/mL
COC(=O)CCc1cnc(C2C3CC4CC(C3)CC2C4)[nH]1	inhibition	-	-	-	-	H37Rv	6.25 µg/mL	21%
COc1ccc(C(=O)/C=C/c2ccc(F)cc2Cl)cc1	MIC	-	-	-	MTT	H37Rv	-	32 µg/mL
CCOc1ccccc1NC(=O)OCC[NH+]1CCCC1	MIC	-	-	-	-	My 331/88	-	>1000 µM
C[C@]1(COc2ccc(N3CCC(Nc4cccc(Cl)c4)CC3)cc2)Cn2cc([N+](=O)[O-])nc2O1	MIC	-	-	-	-	H37Rv	-	0.024 µg/mL
Cc1c(N=Nc2cccc(Cl)c2Cl)c(-c2ccccc2)nn1C(=S)S	MIC	-	-	-	BACTEC	H37Rv	-	16 µg/mL
O=C(/C=C/c1ccccc1Cl)c1ccc(F)cc1	MIC	-	14 d	-	MTT	H37Rv	-	32 µg/mL
COc1c(N2CCNC(C)C2)c(F)cc2c(=O)c(C(=O)O)cn(C3CC3)c12	MIC	-	-	-	-	102 strains	-	2 µg/mL
COC(=O)c1cc(NC(=O)Oc2ccccn2)cc(C(=O)OC)c1	MIC bound	-	-	-	BACTEC	H37Rv	-	>12.5 µg/mL
CN(Cc1cccc(C(F)(F)F)c1)C1CCN(c2ccc(OC[C@@]3(C)Cn4cc([N+](=O)[O-])nc4O3)cc2)CC1	MIC	-	-	-	-	H37Rv	-	0.024 µg/mL
CC(CCOc1ccc2ccc(=O)oc2c1)C1=CC(=O)C(C)(C)O1	MIC bound	-	-	-	BACTEC	H37Rv	-	>12.5 µg/mL
CN(C)c1ccc(/C=N/NC(=O)c2ccc(F)cc2)cc1	MIC	-	-	-	-	H37Rv	-	>6.25 µg/mL
NNC(=O)c1nc(C2CCCCC2)[nH]c1C1CCCCC1	MIC	-	-	-	-	H37Rv	-	>6.25 µg/mL
C[C@]1(COc2ccc(N3CCC(Nc4ccc(Cl)c(Cl)c4)CC3)cc2)Cn2cc([N+](=O)[O-])nc2O1	MIC	-	-	-	-	H37Rv	-	0.012 µg/mL
COc1ccc(C(=O)/C=C/c2ccc(F)cc2)c(F)c1	MIC	-	21 d	-	resazurin	H37Rv	-	32 µg/mL
COc1ncc(F)c2nc(S(=O)(=O)Nc3c(O)cccc3C(C)O)nn12	MIC50	INH RIF resistant	-	-	visual reading	M22	-	0.5 µM
O=C1C(Cl)=C(Nc2cccc3cc4ccccc4nc23)C(=O)c2ccccc21	MIC bound	-	-	-	BACTEC	H37Rv	-	>12.5 µg/mL
CC1CN(c2cc3c(cc2F)C(=O)c2nc4ccccc4c(=O)n2-3)CCN1	MIC	-	-	-	-	MDR 10038	-	5 µg/mL
COc1ccc(C(=O)/C=C/c2ccccc2Cl)cc1	MIC	-	7 d	-	resazurin	H37Rv	-	32 µg/mL
CC(=O)c1c(C)n([O-])c2cc(C)c(C)cc2[n+]1=O	inhibition	-	-	VERO	BACTEC	H37Rv	6.25 µg/mL	100%
CC(C)(C)c1ncc(C(=O)NN)[nH]1	MIC	-	-	-	-	H37Rv	-	>6.25 µg/mL
O=C(N/N=C/c1ccc([N+](=O)[O-])s1)c1ccccc1	inhibition	-	-	-	-	H37Rv	6.25 µg/mL	96%
NC[C@@H]1O[C@H](O[C@H]2[C@@H](O)[C@H](O[C@@H]3[C@@H](O)[C@H](N)C[C@H](N)[C@H]3O[C@H]3O[C@H](CO)[C@@H](O)C[C@H]3N)O[C@@H]2CO)[C@H](N)[C@@H](O)[C@@H]1O[C@H]1O[C@H](CO)[C@@H](O)[C@H](O)[C@@H]1O	MIC	-	-	-	-	5 strains	-	50 µg/mL
NC(=O)c1cnccn1	MIC	-	-	-	-	T7505	-	30 µg/mL
O=C1c2cc(F)ccc2-n2c1nc1cccc(F)c1c2=O	MIC	-	-	-	-	H37Rv	-	1 µg/mL
O=[N+]([O-])c1cnc(-c2ccc(F)cc2)n1CCO	inhibition	-	-	-	resazurin	H37Rv	6.25 µg/mL	2%
CCCCCOc1cccc(NC(=O)OCCN(C)C)c1	MIC	-	-	-	-	My 331/88	-	32 µM
COc1ccc(N2CCN(Cc3c(C(C)=O)[n+](=O)c4cc(C)c(C)cc4n3[O-])CC2)cc1	EC50	-	-	-	BACTEC	H37Rv	-	>6.25 µg/mL
CCN(CC)C(=S)Sc1nsc(SC(=S)N(CC)CC)c1C#N	MIC bound	-	-	-	BACTEC	H37Rv	-	≤128 µg/mL
CCCCCCOc1ccccc1NC(=O)OCCN(C)C	MIC	-	-	-	-	My 331/88	-	32 µM
c1coc(-c2nc3ccccc3s2)c1	MIC bound	-	-	-	BACTEC	H37Rv	-	>6.25 µg/mL
O=C(O)CCc1cnc(C2CCCCC2)[nH]1	inhibition	-	-	-	-	H37Rv	6.25 µg/mL	0%
COc1ccc(CSC(=S)Nc2ccc(Cl)c(C(F)(F)F)c2)cc1	inhibition	-	-	-	resazurin	H37Rv	6.25 µg/mL	11%
CC(=O)c1c(CN2CCN(c3ccccc3C)CC2)n([O-])c2ccccc2[n+]1=O	EC50	-	-	-	BACTEC	H37Rv	-	>6.25 µg/mL
COc1ccc(C2c3cn[nH]c3CC3CCCCC32)cc1	inhibition	-	-	-	BACTEC	H37Rv	12.5 µg/mL	3%
C/C=C/c1ccc2oc(-c3ccc4c(c3)OCO4)c(C)c2c1	MIC	-	-	-	resazurin / absorbance	H37Rv	-	250 µg/mL
NNC(=O)CNc1cc(Cl)cc(Cl)c1	MIC bound	-	-	-	BACTEC	H37Rv	-	>12.5 µg/mL
O=C1NC(=Nc2ccc(Cl)cc2Cl)N/C1=C\c1ccc(Cl)cc1Cl	MIC	-	-	VERO	-	H37Rv	-	>12.5 µg/mL
CC1CN(C(=N)C#N)C(C)CN1C(=N)C#N	MIC bound	-	-	-	BACTEC	H37Rv	-	>12.5 µg/mL
C[C@]1(COc2ccc(-c3ccc(N4CCN(Cc5ccc(Cl)c(Cl)c5)CC4)cc3)cc2)Cn2cc([N+](=O)[O-])nc2O1	MIC	-	-	-	-	H37Rv	-	0.012 µg/mL
O[C@H]1[C@H](O)[C@@H](O)CN2CC[C@H](O)[C@H]12	inhibition	-	-	-	BACTEC	H37Rv	12.5 µg/mL	0%
COc1ccc(C(=O)/C=C/c2ccc(F)cc2)cc1F	MIC	-	7 d	-	resazurin	H37Rv	-	128 µg/mL
COc1ccc(N/C=C2\C(=O)CCc3c2oc2cc(Cl)c(O)c(Cl)c32)cc1	MIC bound	-	-	-	BACTEC	H37Rv	-	>12.5 µg/mL
CO[C@H]1/C=C/O[C@@]2(C)Oc3c(C)c(O)c4c(O)c(c(/C=N/N5CCN(C6CCCC6)CC5)c(O)c4c3C2=O)NC(=O)/C(C)=C\C=C\[C@H](C)[C@H](O)[C@@H](C)[C@@H](O)[C@@H](C)[C@H](O)[C@@H]1C	MIC	-	-	-	-	Isolate 920492 rifampicin-resistant	-	>64 µg/mL
CCOC(=O)c1nc2c(C)nc(N)nc2[nH]c1=O	MIC bound	-	-	-	BACTEC	H37Rv	-	>12.5 µg/mL
NNC(=O)c1nc(C2CCCC2)[nH]c1C1CCCC1	MIC	-	-	-	-	H37Rv	-	>6.25 µg/mL
O=C1c2cccnc2-c2nccc3c2c1nc1ccccc13	MIC bound	-	-	-	BACTEC	H37Rv	-	≤12.5 µg/mL
O=C1NC(NNC(=O)c2ccncc2)=N/C1=C\c1ccc(Cl)cc1	MBC	-	-	-	-	Isoniazid-resistant	-	>100 µg/mL